Values from PubChem BioAssay AID504761 (Drosophila RNAi Screening Center, 2011).

Purpose: 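Fly genes whose silencing reduces dengue virus type 2 infection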 (primary screen)
Cells: D.Mel-2 cells from Drosophila
Knock-down reagent: long dsRNA against Drosophila genes
Conditions: infection with dengue virus type 2; dose and infection time not stated
Detection: 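Cells stained for dengue envelope protein and imaged; percent of infected cells per well on duplicate plates, ranked by infection, with stained nuclei counted for cell number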
Direction: infection score: higher = more virus-infected cells; cell count: higher = more cells in the well
Hit rule: 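Low infection ranks in the two replicates (chance level up to 0.065) followed by a retest with a 1.5-fold or larger significant decrease, p below 0.05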
Meaning of the calls: active = confirmed: knock-down lowers infection; inactive = not picked or not confirmed
The deposit covers about 22,000 reagents; shown is an unselected part of those with a known target gene and a result. Over the whole deposit, 116 (0.52%) are marked active. 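Calls depend on retest data that are not deposited; infection was ranked per plate without normalising between plates; the unit of the infection score is not given.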 The raw values are shown without normalisation. Reagents against one gene are numbered here. Names joined by + are all predicted targets of the reagent. No sequences are given here. Not stated in the record: the amount of reagent, the time to read-out.

predicted target | reagent | infection score, replicate 1 | infection score, replicate 2 | cell count, replicate 1 | cell count, replicate 2 | call
Arl5 | 1 | 15.1 | 18.9 | 5885 | 5842 | inactive
Arl5 | 2 | 2.33 | 2.6 | 6211 | 6160 | inactive
eIF4E7 | 1 | 4.13 | 8.82 | 6222 | 6553 | inactive
eIF4E7 | 2 | 0.92 | 2.39 | 6850 | 5936 | inactive
Ir20a | 1 | 3.9 | 0.43 | 6633 | 6709 | inactive
Got2 | 1 | 1.16 | 6.68 | 6196 | 5796 | inactive
Rab9D + Rab9Fa + Rab9E | 1 | 15.3 | 11.9 | 3993 | 5391 | inactive
CG5697 | 1 | 4.72 | 2.1 | 6593 | 6226 | inactive
SK | 1 | 0.75 | 5.96 | 6509 | 6564 | inactive
SK | 2 | 10.6 | 10.4 | 6160 | 6468 | inactive
SK | 3 | 10.8 | 19.9 | 4555 | 3705 | inactive
SK | 4 | 4.29 | 3.28 | 5730 | 6644 | inactive
SK | 5 | 7.54 | 3.46 | 6724 | 6445 | inactive
CG14545 | 1 | 1.17 | 2.94 | 6056 | 6387 | inactive
CG14545 | 2 | 3.81 | 4.26 | 6004 | 7214 | inactive
CG17883 | 1 | 0.9 | 4.04 | 6446 | 5945 | inactive
nst | 1 | 11.4 | 5.41 | 6265 | 6473 | inactive
CG13168 | 1 | 14.7 | 6.08 | 5755 | 6203 | inactive
CG10333 | 1 | 12.8 | 6.86 | 5495 | 5306 | inactive
CG10333 | 2 | 23.7 | 38.6 | 6022 | 4399 | inactive
eloF | 1 | 7.5 | 5.76 | 6094 | 6444 | inactive
eloF | 2 | 2.85 | 3.04 | 6341 | 5897 | inactive

Targets listed so far whose target name begins with A or a:
predicted target | reagent | infection score, replicate 1 | infection score, replicate 2 | cell count, replicate 1 | cell count, replicate 2 | call
Arl5 | 1 | 15.1 | 18.9 | 5885 | 5842 | inactive
Arl5 | 2 | 2.33 | 2.6 | 6211 | 6160 | inactive

The listing continues:
predicted target | reagent | infection score, replicate 1 | infection score, replicate 2 | cell count, replicate 1 | cell count, replicate 2 | call
CG5402 | 1 | 3.84 | 1.99 | 6482 | 6947 | inactive
CG5402 | 2 | 19.9 | 9.9 | 5803 | 6587 | inactive
Rhau | 1 | 11.7 | 6.35 | 5255 | 6343 | inactive
Rhau | 2 | 3.86 | 8.26 | 6509 | 6602 | inactive
Mettl5 + CG42374 | 1 | 4.06 | 10.6 | 6473 | 6337 | inactive
Nedd8 | 1 | 1.41 | 16.2 | 5683 | 5057 | inactive
CG17294 | 1 | 3.36 | 16.4 | 6725 | 5204 | inactive
Slip1 | 1 | 2.44 | 13.6 | 6270 | 6707 | inactive
Dek | 1 | 11 | 4.19 | 6995 | 6782 | inactive
Dek | 2 | 4.43 | 1.24 | 6621 | 6510 | inactive
ATPsynO | 1 | 22.1 | 47.5 | 3043 | 4358 | inactive
ATPsynO | 2 | 15.3 | 6.69 | 6001 | 5857 | inactive
CG31244 | 1 | 7.8 | 15.6 | 6437 | 6804 | inactive
CG3546 | 1 | 3.1 | – | 1257 | 284 | inactive
CG3546 | 2 | 5.75 | 6.91 | 6499 | 6589 | inactive
Arl8 | 1 | 4 | 4.85 | 6218 | 6597 | inactive
CG16952 | 1 | 8.05 | 1.99 | 5540 | 6486 | inactive
